The source of these data is patent US20040127405A1, “Methods for treating lung infections and lung tumors and for treating and preventing lung metastases” (priority 2000, published 2004).

For the data set, the system named is lungs of rats. The experiment in a line: Histological investigation of the lung after intratracheal instillation. It is filed as in vivo, rat.

“S-[2,3-bispalmitoyloxy-(2R)-propyl]cysteinyl-GNNDESNISFKEK (N-terminal S-(2,3-bispalmitoyloxy-2R-propyl)cysteine) [2R-MALP-2]”: the lung histology entry is “mild inflammation” (2.5 μg intratracheal); “multifocal, pneumonia-like infiltration consisting of neutrophils and mononuclear cells” (25 μg intratracheal, three days after instillation).
